Experimental data published in ChEMBL document CHEMBL5107986, “Small molecule NS5B RdRp non-nucleoside inhibitors for the treatment of HCV infection: A medicinal chemistry perspective” (Eur J Med Chem, 2022).

System: Hepatitis C virus
Assay: Antiviral activity against HCV GT1b assessed as inhibition of viral replication
Format: functional, organism-based, Hepacivirus hominis

CCO[P@]1(=O)N=C(C2=C(O)[C@H](C(C)(C)C)N(CCC(C)(C)C)C2=O)Nc2ccc(NS(C)(=O)=O)cc21
EC50: 5 nM
